This is a selection; strong and weak results do not stand in their true shares. Active and inactive are the calls of the source.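 The calls were made as follows: active = every replicate shows inhibition above about 80%, whatever the replicate mean (limit read from the data); inconclusive = mean inhibition reaches the set limit but some replicate falls short; inactive = the rest.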
assay: reduced ATP signal of yeast carrying P. falciparum Hsp90 – S. cerevisiae, BacTiter-Glo luminescence, single point, set 2, antimalarial PfHsp90 inhibitor project, primary screen (AID 504621);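 also: yeast relying on Plasmodium falciparum Hsp90 in place of its own; 0% = DMSO neutral controls and 100% = 20 µM radicicol positive controls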; details: S. cerevisiae expressing PfHsp90, growth, 48 h, at 9.4 µM, stronger effect = higher value, yeast lacking PDR1 and PDR3 efflux regulators

| Compound | inhibition |
| --- | --- |
| COc1cc(C(=O)NCC2(N3CCOCC3)CCCCC2)cc(Cl)c1OC(C)C | inactive: 10.1% |
| CCOP(=O)(Nc1cccc2ccccc12)OCC | inactive: -0.385% |
| COc1cc(C2NCCC3(OCCO3)C2(C)C)cc(OC)c1OC (stereo not given) | inactive: -20.5% |
| Nc1cccc2c([As](=O)(O)O)cccc12 | inactive: -15.6% |
| Cc1ccc(NCCc2c([N+](=O)[O-])cc([N+](=O)[O-])cc2[N+](=O)[O-])cc1 | inactive: -12.5% |
| CCCOP(=S)(Nc1nc(N)cc(=O)[nH]1)OCCC | inactive: -8.2% |
| CC(C)(C)C(=O)NC(Sc1ncccn1)C(Cl)(Cl)Cl (stereo not given) | inactive: -2.37% |
| CCOP(=O)(NC(=NC(C)c1ccccc1)NC(C)c1ccccc1)OCC (stereo not given) | inactive: 4.14% |
| CCC1=CC2Cc3nc4ccc(Cl)cc4c(N)c3C(C1)C2 (stereo not given) | inactive: 0.899% |
| CCOP(=O)(Nc1ccc(C)cn1)OCC | inactive: -18.1% |
| CC(C)/C=N\N=C(\N)N[N+](=O)[O-] | inactive: -34.2% |
| CN(C(=O)Cc1ccc(Cl)c(Cl)c1)[C@@H]1CCCC[C@H]1N1CCCC1 | inactive: 11.3% |
| CC1(CBr)Cn2c(nc3ccccc3c2=O)S1 (stereo not given) | inactive: 0.3% |
| COc1ccccc1CNC(=O)COC(=O)C(O)(c1ccccc1)c1ccccc1 | inactive: 7.61% |
| CN(C)C1(CNC(=O)c2ccc(S(C)(=O)=O)cc2)CCCCC1 | inactive: 7.82% |
| CCCC1OP(=O)(Nc2ccccc2)OCC1CC (stereo not given) | inactive: 16.7% |
| O=C(/C=C/c1ccccc1)OC1CN2CCC1CC2 (stereo not given) | inactive: 7.57% |
| CC1CCC(C(C)C)C(OP(=O)(Nc2ccccn2)c2ccccc2)C1 (stereo not given) | inactive: 5.77% |
| Cc1ccc(C(=O)OC2CN3CCC2CC3)cc1 (stereo not given) | inactive: 5.47% |
| Cc1nn(-c2ccccc2)c2c1P(=O)(N1CCOCC1)N(C)C(c1ccccc1)=N2 (stereo not given) | inactive: 10.6% |
| Nc1cccc([As](=O)(O)c2ccccc2)c1 | inactive: -64.9% |
| O=[As](O)(c1cccs1)c1cccs1 | inactive: 1.22% |
| Cc1ccc(OCC(=O)OC2CN3CCC2CC3)cc1 (stereo not given) | inactive: -3.23% |
| O=P1(Nc2ccc(Br)cn2)COc2ccccc2OC1 | inactive: 31.5% |
| NS(=O)(=O)c1cccc(NC(=O)COC(=O)C(O)(c2ccccc2)c2ccccc2)c1 | inactive: -4.96% |

| Compound | inhibition |
| --- | --- |
| C[C@H]1OP(=O)(Oc2ccccc2)[C@H](O)[C@H](O)[C@H]1N=[N+]=[N-] (stereo not given in full) | inactive: 8.13% |
| O=P(Nc1nc2ccccc2s1)(c1ccccc1)c1ccccc1 | inactive: 25.9% |
| O=P(Nc1ccccn1)(c1ccc(Br)cc1)c1ccc(Br)cc1 | inactive: -8.11% |
| CN(C)C1(CNC(=O)c2ccc(Cl)c(S(N)(=O)=O)c2)CCCCC1 | inactive: 2.08% |
| COc1ccc(N)c([N+](=O)[O-])c1[N+](=O)[O-] | inactive: -2.91% |
| C(Cc1nn[nH]n1)Cc1nn[nH]n1 | inactive: 17.8% |
| Nc1ccc([As](=O)(O)c2ccc([N+](=O)[O-])cc2)cc1 | inactive: 17.8% |
| O=[As](O)(c1ccccc1)c1ccc(O)cc1 | inactive: 7.83% |
| O=[N+]([O-])c1ccc(O)c(/C=N/Nc2ccc([N+](=O)[O-])cc2[N+](=O)[O-])c1 | inactive: -15.8% |
| O=[N+]([O-])c1ncn(CCn2cnc([N+](=O)[O-])n2)n1 | inactive: 2.08% |
| CC(=O)NC(SC(=S)N(C)C)C(Cl)(Cl)Cl (stereo not given) | inactive: -33.6% |
| c1nnnn1CCn1cnnn1 | inactive: -0.142% |
| CC(C)C(=O)NC(Sc1ccccc1)C(Cl)(Cl)Cl (stereo not given) | inactive: 8.13% |
| O=P(Nc1nccs1)(c1ccccc1)c1ccccc1 | inactive: 7.67% |
| CC(C)(C)C(=O)NC(Sc1ccccc1)C(Cl)(Cl)Cl (stereo not given) | inactive: -16.5% |
| CCOc1ccc(C2=NCC(CBr)S2)cc1 (stereo not given) | inactive: 18.3% |
| CC(=O)Nc1ccc(Oc2c([N+](=O)[O-])cc([N+](=O)[O-])cc2[N+](=O)[O-])cc1 | inactive: 13.1% |
| CC(=O)Nc1ccc([As](=O)(O)O)c(O)c1 | inactive: -5.63% |
| C[C@H]1OP(=O)(Oc2ccccc2)C[C@@H]2O[C@@H]21 (stereo not given in full) | inactive: 6.61% |
| C[C@@H]1C=CCP(=O)(Oc2ccccc2)O1 (stereo not given in full) | inactive: -2.4% |
| Cc1ccccc1CN(C)C(=O)COC(=O)C(O)(c1ccccc1)c1ccccc1 | inactive: -3.41% |
| COC(=O)C1(C)COP(=O)(NCc2ccccc2)OC1 (stereo not given) | inactive: 31.6% |
| CC(=O)c1ccc(N2CC2c2ccncc2)cc1 (stereo not given) | inactive: -28.7% |
| N#C/C(=C\c1ccc(N(CCBr)CCBr)cc1)C(N)=O | inactive: -10.1% |
| O=P1(N(CCCl)CCCl)OCCC2CCCCN21 (stereo not given) | inactive: 12.6% |

From PubChem BioAssay AID504621 (Broad Institute, 2011)
